Where a name gives a salt, the structure may show the parent alone.
Experiment: Urinary excretion in mice
Assay type: in vivo, male mice (ddY)
Settings: 25 mg/kg, im, single dose, pooled from 4 mice
Method: The contents of the vials (No. A) obtained in Example 17 were dissolved in deionized water to form solutions of penicillin compound 1 in a concentration of 25 mg/ml. The solutions were administered in a dose of 25 mg/kg (im) to four male mice (ddY) having an average body weight of 25 g. After given periods of time, the urine was collected from the four mice, and the concentration of the penicillin compound 1 in the urine was determined.
Urine was collected by using a metabolism cage for 3, 6, and 24 hours after administration. The pooled urine was diluted with a 0.067M phosphate buffer (pH 7.0) before assay to 500 times for the 0-3 hour urine, 100 times for the 3-6 hour urine and 10 times for the 6-24 hour urine.
The levels of compound 1 were determined by the thin-layer cup-plate method using Escherichia coli Kp as an indicator microorganism and a standard calibration line was prepared in a 0.067M phosphate buffer (pH 7.0).

Structure (SMILES): CC1(C)S[C@@H]2[C@H](NC(=O)[C@H](NC(=O)c3c[nH]c4nc(N5CCN(C=O)CC5)ncc4c3=O)c3ccc(O)cc3)C(=O)N2[C@H]1C(=O)O [Compound 1, D-α-[5,8-Dihydro-2-(4-formyl-1-piperazinyl)-5-oxopyrido[2,3-d]pyrimidine-6-carboxamido]-p-hydroxybenzyl-penicillin sodium salt]
- V: urine volume (0-3 hour): 3.83 mL
- V: urine volume (3-6 hour): 2.23 mL
- V: urine volume (6-24 hour): 6.67 mL

Source: patent publication US4103011A, “Novel penicillin compounds and process for preparation thereof” (priority 1976, dated 1978)
